Measured values as given in patent US20160052996A1 (NEURIMMUNE, published 2016).

Amino acid sequences for entries named in this document (tags omitted). A change or cut given only in a name is not applied to a line headed by its entry. Residues count along the entry.
UniProt P03089: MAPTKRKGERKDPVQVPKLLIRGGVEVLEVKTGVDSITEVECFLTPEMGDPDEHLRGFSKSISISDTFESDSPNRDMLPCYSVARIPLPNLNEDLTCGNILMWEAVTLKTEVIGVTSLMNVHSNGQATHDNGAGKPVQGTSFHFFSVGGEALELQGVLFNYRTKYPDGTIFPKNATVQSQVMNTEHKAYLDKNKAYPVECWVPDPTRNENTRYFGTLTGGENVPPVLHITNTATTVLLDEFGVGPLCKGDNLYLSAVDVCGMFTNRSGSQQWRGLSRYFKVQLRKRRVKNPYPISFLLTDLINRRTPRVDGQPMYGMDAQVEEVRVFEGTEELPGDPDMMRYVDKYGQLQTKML
UniProt P02769, 25-607 limits assumed: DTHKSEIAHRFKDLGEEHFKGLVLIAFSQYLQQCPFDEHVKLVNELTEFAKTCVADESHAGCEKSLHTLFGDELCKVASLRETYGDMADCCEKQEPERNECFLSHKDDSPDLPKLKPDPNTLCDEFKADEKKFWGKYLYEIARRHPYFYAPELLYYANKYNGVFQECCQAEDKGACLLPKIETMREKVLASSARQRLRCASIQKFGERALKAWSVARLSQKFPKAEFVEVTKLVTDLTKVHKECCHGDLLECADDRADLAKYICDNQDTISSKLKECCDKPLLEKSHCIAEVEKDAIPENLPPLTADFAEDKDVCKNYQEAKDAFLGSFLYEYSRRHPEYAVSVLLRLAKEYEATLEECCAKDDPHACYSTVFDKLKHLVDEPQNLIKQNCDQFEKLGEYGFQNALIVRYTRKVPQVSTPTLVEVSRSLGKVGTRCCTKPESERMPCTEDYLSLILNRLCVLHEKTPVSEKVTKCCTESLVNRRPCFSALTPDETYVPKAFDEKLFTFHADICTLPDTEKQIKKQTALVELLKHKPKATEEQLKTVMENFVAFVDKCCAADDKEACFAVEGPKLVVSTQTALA

Assays:
[1] = molecular target: T1, JCV VP1 VLP (JC virus (JCV), Mad-1 strain, UniProt P03089 1-354); assay: direct ELISA
T1 construct: also called JCV VP1 VLPs; JCV VP1 (coating with reassociation buffer)

[2] = molecular target: T2, BSA (Sigma-Aldrich) (bovine, UniProt P02769 25-607); assay: direct ELISA
T2 construct: also called bovine serum albumin

[3] = molecular target: T3, peptide 82 (325-[…]-339) (JC virus (JCV)); assay: pepscan, peptides on membrane
T3 construct: also called spot 82

[4] = molecular target: T4, peptide 83 (329-[…]-343) (JC virus (JCV)); assay: pepscan, peptides on membrane
T4 construct: also called spot 83

B1: NI-307.11G6 (antibody, V domains shown)
VH: QVQLVESGGDLVKPGGSLRLSCAASGFTFSDHYMSWIRQAPGKGLEWVSYISTRSTYTNYADSVKGRFTISRDNAKNSLYLHMNSLRTEDTAVYYCARDYSDTSGPPDYWGQGTLVTVSS
VL: QSVLTQPPSASGTPGQRVTISCSGSNSNIGSNYVYWYQQLPGTAPKLVIYRNTQRPSGVPDRFSGSKSGTSASLAISGLRSEDEADYYCAAWDDSLSGLVFGGGTKLTVL
- EC50 [1]: 0.0118 nM
- binding result [2]: no binding
- binding result [3]: binds
- binding result [4]: binds
